Assays:
[1] = molecular target: MBP.NS1 H5N1A (EPEV) (influenza A H5N1) (UniProt O56264); assay: direct binding assay titration
[2] = molecular target: MBP.NS1 H5N1A (EPEV) (influenza A H5N1) (UniProt O56264); assay: G assay titration
[3] = molecular target: MBP.NS1 H5N1A (EPEV) (influenza A H5N1) (UniProt O56264); assay: titration, direct binding sandwich assay
[4] = molecular target: Peptide 1958 H5N1A (EPEV) (influenza A H5N1); assay: G assay titration
[5] = molecular target: influenza A NS1, C-terminus ESKV (influenza A)
[6] = molecular target: influenza A NS1, C-terminus ESEI (influenza A)

| Substance | EC50 [1] | EC50 [2] | EC50 [3] | EC50 [4] | affinity [5] | affinity [6] |
| --- | --- | --- | --- | --- | --- | --- |
| DLG1 d1,2 (from UniProt Q12959 218-410) | > 100 µg/mL | 23 µg/mL |  |  |  |  |
| PSD95 d1,2,3 (from UniProt P78352 59-402) | 15.7 µg/mL | > 100 µg/mL | 15.8 µg/mL | 4.1 µg/mL |  |  |
| PSD-95 (from UniProt P78352 59-402) |  |  |  |  | 45 nM | 200 nM |

From patent publication US20070161078A1
